Anti-infective test results gathered from many reports (values: NIAID ChemDB through PubChem).

Shared fields: whole-cell or culture tests; organism: Hepatitis C virus; endpoint: EC50

Blank or dashed fields: not listed here. Conditions beyond the fields shown may differ between rows. ECn is the concentration giving n% inhibition of infection, replication or growth. a–b is a range or a potency band.

SMILES	cell line	read by	strain	result
CC1CCC(C(=O)N(CC2CCOCC2)c2cc(-c3ccc(-c4cn5ccccc5n4)cc3)sc2C(=O)O)CC1	-	replicon / ELISA	1a	0.005–0.0099 µM
COC(=O)OC(C1COC(=O)O1)C1NC(=S)NC(C)=C1C(=O)OCCc1cccc(Cl)c1	Huh7	ELISA	-	<1 µM
Nc1ccnc2cc(-c3ccc(-c4cc(N(C(=O)C5CCC(C(F)(F)F)CC5)C5CCOCC5)c(C(=O)O)s4)cc3)nn12	-	replicon / ELISA	1b	0.005–0.0099 µM
CC1(C)CC(=O)C2=C(C1)Nc1c(O)cccc1NC2c1ccoc1	-	luciferase / reporter gene / replicon	1b	67.73 µM
CC1CCC(C(=O)N(c2cc(-c3ccc(-c4cc5ncccn5n4)cc3)sc2C(=O)O)C2CCOC2)CC1	-	replicon / ELISA	1a	0.005–0.0099 µM
CN(C)[C@@H](C(=O)N1CCC[C@H]1C(=O)Nc1ccc(C#Cc2ccc(NC(=O)[C@@H]3CCCN3C(=O)[C@@H](c3ccccc3)N(C)C)cc2)cc1)c1ccccc1	Huh7	ELISA	GT1a	<0.0046 µM
CC1=C(C(=O)OCCCSc2nc3ccccc3o2)C(CF)NC(=S)N1	Huh7	ELISA	-	1–10 µM
O=C(O)c1sc(-c2ccc(-c3cc4ncccn4n3)cc2)cc1N(C(=O)C1CCC(C(F)(F)F)CC1)C1CCOCC1	-	replicon / ELISA	1b	0.01–0.049 µM
O=C(O)c1ccc2c(C3CCCCC3)c3n(c2c1)CCCc1ncccc1-3	Huh7	replicon	-	0.01–1 µM
CC1=C(C(=O)OC(C)c2ccccc2)CNC(=S)N1	Huh7	ELISA	-	1–10 µM
COC(=O)c1ccc2c(C3CCCCC3)c3n(c2c1)CC(C(=O)N1CCOCC1)Cc1ccncc1-3	Huh7	replicon	-	0.01–1 µM
CC(C)CC[C@@]1(C)C(=O)C(C2=NS(=O)(=O)c3cc(NS(C)(=O)=O)ccc3N2)=C(O)c2ccccc21	Huh7	luciferase	2b	2.928 µM
COc1cc(Cl)cc(COC(=O)C2=C(C)NC(=S)NC2)c1	Huh7	ELISA	-	<1 µM
CC1(C)CC(=O)C2=C(C1)Nc1c(O)cccc1N(C(=O)OCC(=O)NS(C)(=O)=O)C2c1ccc(OCc2ccccc2)cc1Cl	-	luciferase / reporter gene / replicon	1b	>32 µM
COc1ccc(-c2cc(C(F)(F)F)c3c(N)c(C(N)=O)sc3n2)cc1	Huh7	MTT	-	4 µM
CC1CCC(C(=O)N(CC2CCOCC2)c2cc(-c3ccc(-c4nc5ncccc5o4)cc3)sc2C(=O)O)CC1	-	replicon / ELISA	1a	0.01–0.049 µM
O=C(O)/C=C/c1ccc(NC(=O)C2(NC(=O)c3ccc4c(C5CCCCC5)c5n(c4c3)CCCc3nccnc3-5)CCCC2)cc1	Huh7	replicon	-	0.01–1 µM
CC1=C(C(=O)OCc2cc3c(C)nn(C)c3s2)CNC(=S)N1	Huh7	ELISA	-	>20 µM
Nc1c(C(=O)N2CCOCC2)sc2nc(-c3ccccc3)cc(C(F)(F)F)c12	Huh7	MTT	-	3.3 µM
CC1CCC(C(=O)N(c2cc(-c3ccc(-c4cn5ccccc5n4)cc3)sc2C(=O)O)C2CCOCC2)CC1	-	replicon / ELISA	1b	0.01–0.049 µM
CNC(=O)c1c(-c2ccc(F)cc2)oc2cc(N(CCO)S(C)(=O)=O)c(C3CC3)cc12	Huh7.5	luciferase	JFH1 Genotype 2a	0.0926 µM
S=C1NCCN1C(=S)Nc1cccc(OCCCCCc2ccccc2)c1	Ava5-EG(delta4AB)SEAP	reporter gene / fluorescence	-	0.001–1 µM
CCOCCN(C(=O)C1CCC(C)CC1)c1cc(-c2ccc(-c3cn4ccccc4n3)cc2)sc1C(=O)O	-	replicon / ELISA	1b	0.01–0.049 µM
CC(=O)N1c2cccc(O)c2NC2=C(C(=O)CC(C)(C)C2)C1Cc1ccc(Cl)cc1Cl	-	luciferase / reporter gene / replicon	1b	12.89 µM
CCC(=O)c1c(-c2ccc(F)cc2)oc2cc(N(CCO)S(C)(=O)=O)c(C3CC3)cc12	Con-1	luciferase	-	0.0077 µM
CCCNC(=S)Nc1ccc2c(c1)Cc1cc(Br)ccc1-2	Ava5-EG(delta4AB)SEAP	reporter gene / fluorescence	-	0.001–1 µM
O=C(O)c1ccc2c(C3CCCCC3)c3c4ccccc4cc(C(=O)O)n3c2c1	Huh7	replicon	-	>10 µM
S=C(NCCCc1ccccc1)Nc1ccc2c(c1)Cc1cc(Br)ccc1-2	Ava5-EG(delta4AB)SEAP	reporter gene / fluorescence	-	0.001–1 µM
CC1(C)CC(=O)C2=C(C1)Nc1c(O)cccc1N(C(=O)CCC(=O)N1CCC(N3CCOCC3)CC1)[C@H]2c1ccc(OCc2ccccc2)cc1Cl	-	luciferase / reporter gene / replicon	1b	5.51 µM
Nc1c(C(=O)N2CCOCC2)sc2nc3c(c(C(F)(F)F)c12)CCc1ccccc1-3	Huh7	MTT	-	3.9 µM
CC(C)C(=O)N1c2cccc(O)c2NC2=C(C(=O)CC(C)(C)C2)C1c1ccc(OCc2cccc(F)c2F)cc1F	-	luciferase / reporter gene / replicon	1b	4.54 µM
S=C(Nc1ccccc1)Nc1ccc2c(c1)Cc1cc(Br)ccc1-2	Ava5-EG(delta4AB)SEAP	reporter gene / fluorescence	-	0.001–1 µM
Fc1ccccc1-c1nc2cc[n+](Cc3ccc(-c4ccc(C(F)(F)F)cc4C(F)(F)F)nn3)cc2[nH]1	H77	luciferase	-	0.0015 µM
COCC(COC)N(C(=O)C1CCC(C)CC1)c1cc(-c2ccc(-c3cc4ncccn4n3)cc2)sc1C(=O)O	-	replicon / ELISA	1b	0.001–0.0049 µM
NC(=S)Nc1ccc2c(c1)C(=O)c1ccccc1-2	Ava5-EG(delta4AB)SEAP	reporter gene / fluorescence	-	0.001–1 µM
C=C(Br)CCOC(=O)C1=C(C)NC(=S)NC1	Huh7	ELISA	-	<1 µM
CCCCCCCCCCCCCCOC(=O)NC(CCC(=O)O)(CCC(=O)O)CCC(=O)O	Huh7-SG1a H77	replicon / PCR	1a	0.0284 µM
CC1(C)CC(=O)C2=C(C1)Nc1c(O)cccc1N(C(=O)OCC(=O)O)C2c1ccc(OCc2ccccc2)cc1F	-	luciferase / reporter gene / replicon	1b	25.38 µM
NC(=S)Nc1cccc(OCCCCCOc2ccccc2-c2ccc(Cl)cc2)c1	Ava5-EG(delta4AB)SEAP	reporter gene / fluorescence	-	0.001–1 µM

A second listing of 3 rows from above:

SMILES	cell line	read by	strain	result
CC1CCC(C(=O)N(CC2CCOCC2)c2cc(-c3ccc(-c4nc5ncccc5o4)cc3)sc2C(=O)O)CC1	-	replicon / ELISA	1a	0.01–0.049 µM
COCC(COC)N(C(=O)C1CCC(C)CC1)c1cc(-c2ccc(-c3cc4ncccn4n3)cc2)sc1C(=O)O	-	replicon / ELISA	1b	0.001–0.0049 µM
O=C(O)c1sc(-c2ccc(-c3cc4ncccn4n3)cc2)cc1N(C(=O)C1CCC(C(F)(F)F)CC1)C1CCOCC1	-	replicon / ELISA	1b	0.01–0.049 µM